Reference: US20170145472A1, “METHOD OF DETECTING HELICASE ACTIVITY” (University of Macau, priority 2015, published 2017)

Experiment: Direct quenching control on complex 9 or the complex 9+G-quadruplex ensemble
Conditions: 10 μM of suramin or TBBT

SMILES: Brc1c(Br)c(Br)c2n[nH]nc2c1Br [TBBT, reference compound]
- direct quenching effect on complex 9 or the complex 9+G-quadruplex ensemble: not having a direct quenching effect
